Experimental findings from article PMC7414093 (Proceedings of the National Academy of Sciences of the …, 2020) are described below.

This series is described as follows: general procedure: Fmoc solid-phase peptide synthesis; 2-chlorotrityl chloride resin; HBTU, HOBt, DIPEA (lactam cyclization). The following applies: conjugation step.

As for P7-TAMRA probe, the conjugation yield is given as 95% yield.
